Measurements reported in PubChem BioAssay AID1963822 (ICCB-Longwood Screening Facility, Harvard Medical School, 2024).
This is a selection; strong and weak results do not stand in their true shares. Activity calls are given as the source filed them. How the calls were made is not given here.

experiment: anaerobic choline-dependent bacterial growth inhibition – minimal medium, absorbance (AID 1963822); conditions: Gram-negative bacterium anaerobic choline minimal medium, active compounds read low

SMILES	z-score
Cc1cc(C)c2c(C)c(C(=O)NCC3(N4CCOCC4)CCCCC3)oc2c1	inactive: 0.08
Cc1c(C(=O)NCC2(N3CCOCC3)CCCCC2)oc2cc(Br)ccc12	inactive: -0.91
Cc1c(C(=O)NCC2(N3CCOCC3)CCCCC2)oc2ccc(Cl)cc12	inactive: -0.04
Cc1c(C(=O)NCC2(N3CCOCC3)CCCCC2)oc2ccc(Br)cc12	inactive: -0.57
Cc1c(C(=O)NCC2(N(C)C)CCCCC2)oc2ccc(Br)cc12	inactive: 0.54
Cc1ccc2c(C)c(C(=O)NCC3(N(C)C)CCCCC3)oc2c1C	inactive: 0.16
Cc1c(C(=O)NCC2(N3CCOCC3)CCCCC2)oc2ccc(F)cc12	inactive: 0.11
Cc1c(C(=O)NCC2(N(C)C)CCCCC2)oc2cc(Br)ccc12	inactive: 0.77
Cc1c(C(=O)NCC2(N(C)C)CCCCC2)oc2ccc(Cl)cc12	inactive: 0.44
